Pooled drug test results. Numbers come from NIAID ChemDB, via PubChem.

All rows: growth or infection tests; agent: Mycobacterium avium complex

Blank or dashed fields: not listed here.

compound	read by	read-out	strain	tested at	result
CN[C@@H]1[C@H](O)[C@H](NC)[C@H]2O[C@@]3(O)C(=O)C[C@@H](C)O[C@H]3O[C@@H]2[C@H]1O	-	MBC90	25 isolates	-	>64 µg/mL
CO[C@H]1/C=C/O[C@@]2(C)Oc3c(C)c(O)c4c(O)c(c5c(c4c3C2=O)NC2(CCN(CC(C)C)CC2)N=5)=NC(=O)/C(C)=C\C=C\[C@H](C)[C@H](O)[C@@H](C)[C@@H](O)[C@@H](C)[C@H](OC(C)=O)[C@@H]1C	-	MBC	3350	-	1 µg/mL
CN[C@@H]1[C@H](O[C@H]2[C@H](O[C@H]3[C@H](O)[C@@H](O)[C@H](N=C(N)N)[C@@H](O)[C@@H]3N=C(N)N)O[C@@H](C)[C@]2(O)C=O)O[C@@H](CO)[C@H](O)[C@H]1O	-	MBC	101	-	16 µg/mL
CO[C@H]1/C=C/O[C@@]2(C)Oc3c(C)c(O)c4c(O)c(c(/C=N/N5CCN(C)CC5)c(O)c4c3C2=O)NC(=O)/C(C)=C\C=C\[C@H](C)[C@H](O)[C@@H](C)[C@@H](O)[C@@H](C)[C@H](OC(C)=O)[C@@H]1C	-	MIC	13034 (serotype 18)	-	100 µg/mL
NC1CCCCN(c2c(F)cc3c(=O)c(C(=O)O)cn(C4CC4)c3c2F)C1=O	-	MIC	1760694	-	32 µg/mL
CC1(CN)CCN(c2c(F)cc3c(=O)c(C(=O)O)cn(C4CC4)c3c2F)C1	-	MIC50	-	-	16 µg/mL
CO[C@H]1/C=C/O[C@@]2(C)Oc3c(C)c(O)c4c(O)c(c(/C=N/N5CCN(C)CC5)c(O)c4c3C2=O)NC(=O)/C(C)=C\C=C\[C@H](C)[C@H](O)[C@@H](C)[C@@H](O)[C@@H](C)[C@H](OC(C)=O)[C@@H]1C	-	MIC50	87 isolates	-	0.9 µg/mL
O=[N+]([O-])[O][Ga]([O][N+](=O)[O-])[O][N+](=O)[O-]	-	EC50	2	-	<500 µM
CN1CCN(CCCN=c2cc3n(-c4ccc(Cl)cc4)c4ccccc4nc-3cc2Nc2ccccc2)CC1	-	MIC90	10 srtains	-	0.87 µg/mL
Nc1ccc(C(=O)O)c(O)c1	agar	inhibition	155 strains	2 µg/mL	4%
CC(C)N1CCN(c2cc3c(cc2F)c(=O)c(C(=O)O)cn3-c2ccc(F)cc2F)CC1	-	MIC90	14 strains	-	>32 µg/mL
CN(C)CC1CCN(c2c(F)cc3c(=O)c(C(=O)O)cn(C4CC4)c3c2F)C1	-	MIC50	-	-	0.5 µg/mL
CO[C@H]1/C=C/O[C@@]2(C)Oc3c(C)c(O)c4c(O)c(c(/C=N/N5CCN6CCCCC6C5)c(O)c4c3C2=O)NC(=O)/C(C)=C\C=C\[C@H](C)[C@H](O)[C@@H](C)[C@@H](O)[C@@H](C)[C@H](OC(C)=O)[C@@H]1C	-	EC50	26 strains	-	<0.6 µg/mL
NNC(=O)c1ccncc1	-	MIC	13016 (serotype 4)	-	0.8 µg/mL
CO[C@H]1/C=C/O[C@@]2(C)Oc3c(C)c(O)c4c(O)c(c(/C=N/N5CCN(C)CC5)c(O)c4c3C2=O)NC(=O)/C(C)=C\C=C\[C@H](C)[C@H](O)[C@@H](C)[C@@H](O)[C@@H](C)[C@H](OC(C)=O)[C@@H]1C	-	MIC	1171	-	2 µg/mL
O=[N+]([O-])c1ccc(Sn2cnc3c(=S)nc[nH]c32)cc1	resazurin	EC50	-	-	<12.5 µM
CCCN1CCN(c2cc(=O)c3nc4c(oc3c2)c2c(=O)c3c(O)c(C)c5c(c34)=C(O)[C@@](C)(O/C=C/[C@H](OC)[C@@H](C)[C@@H](OC(C)=O)[C@H](C)[C@H](O)[C@H](C)[C@@H](O)[C@@H](C)/C=C/C=C(/C)C(=O)N2)O5)CC1	-	MIC90	20 strains	-	0.3 µg/mL
NNC(=O)c1ccncc1	-	MIC	1012	-	4 µg/mL
CC1CCN(c2c(F)cc3c(=O)c(C(=O)O)cn(C4CC4)c3c2F)C1	-	MIC90	-	-	8 µg/mL
CC1COc2c(N3CCN(C)CC3)c(F)cc3c(=O)c(C(=O)O)cn1c23	-	MIC90	20 strains	-	12.5 µg/mL
CC1CN(c2cc3c(cc2F)c(=O)c(C(=O)O)cn3C(C)(C)C)CCN1	-	MIC50	14 strains	-	0.25 µg/mL
COC1CCN(c2c(F)cc3c(=O)c(C(=O)O)cn(C4CC4)c3c2F)C1	-	MIC50	-	-	1 µg/mL
CC(C)N=c1cc2n(-c3ccc(Cl)cc3)c3ccccc3nc-2cc1Nc1ccc(Cl)cc1	-	MIC	CH-4/HIV+	-	0.25 µg/mL
CN[C@@H]1[C@@H](O)[C@@H](O[C@@H]2[C@@H](O)[C@H](O[C@H]3O[C@H](CN)CC[C@H]3N)[C@@H](N)C[C@H]2N)OC[C@]1(C)O	-	MBC	ATCC 35718	-	>64 µg/mL
C[C@@H]1CN(c2c(F)c(N)c3c(=O)c(C(=O)O)cn(C4CC4)c3c2F)C[C@H](C)N1	broth dilution	MIC	3	-	1 µg/mL
CC[C@@H](CO)NCCN[C@@H](CC)CO	-	MBC	101-5	-	15 µg/mL
CC1CN(c2c(F)cc3c(=O)c(C(=O)O)cn(C4CC4)c3c2F)CCN1	-	MIC50	-	-	1 µg/mL
CCn1cc(C(=O)O)c(=O)c2cc(F)c(N3CCNC(C)C3)c(F)c21	-	MBC	4 strains	-	8–16 µg/mL
O=C(O)c1cn(C2CC2)c2c(F)c(N3CC4CC3CN4)c(F)cc2c1=O	-	MIC50	-	-	2 µg/mL
CO[C@H]1/C=C/O[C@@]2(C)Oc3c(C)c(O)c4c(=O)c(c5oc6cc(N7CCN(C(C)C)CC7)cc(=O)c6nc5c4c3=C2O)NC(=O)/C(C)=C\C=C\[C@H](C)[C@H](O)[C@@H](C)[C@@H](O)[C@@H](C)[C@H](OC(C)=O)[C@@H]1C	-	MIC90	20 strains	-	0.07–0.3 µg/mL
CC[C@@H](CO)NCCN[C@@H](CC)CO	-	MIC	2212-4	-	3.8 µg/mL
NC1CCN(c2nc3c(cc2F)c(=O)c(C(=O)O)cn3-c2ccc(F)cc2F)C1	-	MBC90	25 isolates	-	>8 µg/mL
O=C(O)c1cn(C2CC2)c2nc(-n3ccnc3)c(F)cc2c1=O	-	MIC50	14 strains	-	≥32 µg/mL
NC(=O)c1cnccn1	agar	EC50	713 strains	-	>25 µg/mL
CO/N=C(/C(=O)N[C@@H]1C(=O)N2C(C(=O)[O-])=C(C[N+]3(C)CCCC3)CS[C@H]12)c1csc(N)n1	-	inhibition	14 strains	8 µg/mL	0%
CN[C@@H]1[C@H](O[C@H]2[C@H](O[C@H]3[C@H](O)[C@@H](O)[C@H](N=C(N)N)[C@@H](O)[C@@H]3N=C(N)N)O[C@@H](C)[C@]2(O)C=O)O[C@@H](CO)[C@H](O)[C@H]1O	-	MIC	Isolate C-16	-	>400 µg/mL
O=C(N[C@H]([C@H](O)CNCc1cccc(I)c1)C(F)(F)c1ccccc1)OCc1ccccc1	agar diffusion	zone	P	50 µg/disc	0 mm
COc1c(N2CCNC(C)C2)c(F)cc2c(=O)c(C(=O)O)cn(C3CC3)c12	-	MIC90	14 strains	-	2 µg/mL
CO[C@H]1/C=C/O[C@@]2(C)Oc3c(C)c(O)c4c(O)c(c(/C=N/N5CCN(C/C=C/c6ccccc6)CC5)c(O)c4c3C2=O)NC(=O)/C(C)=C\C=C\[C@H](C)[C@H](O)[C@@H](C)[C@@H](O)[C@@H](C)[C@H](OC(C)=O)[C@@H]1C	-	MBC	SK-18	-	2 µg/mL

The last 4 rows once more:

compound,read by,read-out,strain,tested at,result
CN[C@@H]1[C@H](O[C@H]2[C@H](O[C@H]3[C@H](O)[C@@H](O)[C@H](N=C(N)N)[C@@H](O)[C@@H]3N=C(N)N)O[C@@H](C)[C@]2(O)C=O)O[C@@H](CO)[C@H](O)[C@H]1O,-,MIC,Isolate C-16,-,>400 µg/mL
O=C(N[C@H]([C@H](O)CNCc1cccc(I)c1)C(F)(F)c1ccccc1)OCc1ccccc1,agar diffusion,zone,P,50 µg/disc,0 mm
COc1c(N2CCNC(C)C2)c(F)cc2c(=O)c(C(=O)O)cn(C3CC3)c12,-,MIC90,14 strains,-,2 µg/mL
CO[C@H]1/C=C/O[C@@]2(C)Oc3c(C)c(O)c4c(O)c(c(/C=N/N5CCN(C/C=C/c6ccccc6)CC5)c(O)c4c3C2=O)NC(=O)/C(C)=C\C=C\[C@H](C)[C@H](O)[C@@H](C)[C@@H](O)[C@@H](C)[C@H](OC(C)=O)[C@@H]1C,-,MBC,SK-18,-,2 µg/mL

MIC50, MIC90 and the like: level of inhibition, or share of isolates inhibited. Lines come from different laboratories, so protocols vary. Percent inhibition refers to the dose given; in toxicity tests it is the harm to the cells. ECn is the concentration giving n% inhibition of infection, replication or growth. Two numbers with a dash give a range or band. Zone: diameter of growth inhibition.